{
  "source": "patent US20060271062A1",
  "about": "(priority 2005, published 2006)",
  "origin": "cited, not measured here",
  "test_system": "lens epithelial cell",
  "details": "rabbit eyes; cited from earlier work",
  "data": [
    {"substance": "salmosin", "values": [
      {"measurement": "Lens epithelial cell proliferation and migration", "value": "inhibit lens epithelial cell proliferation and migration"}
    ]}
  ]
}
